PMC3800186

Molecular target: HIV-1 YU2 gp120 S375A mutant (HIV-1 YU2)
Experiment: SPR

With “Soluble CD4 (from UniProt P01730 26-396) (receptor)” the pKd was 7.39.

pKd: −log10 of the molar value.
